Columns and labels:
Assay type in all cases: cell-based
[1] = test system: EGFR-negative Jurkat cells; experiment: Cell surface binding of FITC-labeled ligands, confocal microscopy, Jurkat; settings: ligand concentration as high as 100 nM
Description: About 2×10^4 cells were seeded on coverslides and allowed to grow in an appropriate medium for 16 hours. The resulting coverslides were washed with PBS twice, followed by incubation with different concentrations of FITC-labeled monomeric or heptameric targeting ligand for 30 min at room temperature. The coverslides were washed with PBS three times and visualized with a Zeiss LSM 510 confocal microscope.
Approximately 2×10^4 cells were seeded on coverslips and allowed to grow in the appropriate media for 16 h. The resulting coverslips were washed twice with 1×PBS buffer followed by incubation in different concentrations of FITC labeled monomeric or heptameric targeting ligand for 30 min at room temperature. The coverslips were washed three times with 1×PBS. The resulting samples were visualized by using a Zeiss LSM 510 confocal microscope.

A431 cells = experiment: Internalization and co-localization with EEA1, A431; settings: FITC-labeled, 10 nM or 100 nM, 2 h, 37° C.; listed as heptameric Z^EGFR
Description: A431 and SKOV3 cells were seeded onto coverslides and grown for 16 hours at 37° C., and incubated with 10 nM or 100 nM of FITC-labeled heptameric Z^EGFR and Z^HER2 for 2 hours at 37° C. After removing unbound heptamers by washing, the cells were fixed with 2% paraformaldehyde in PBS for 15 min at room temperature. After fixation, cells were washed with PBS three times. For immunostaining, blocking solution (PBS with 5% BSA and 0.3% Triton X-100) was added for 1 hour at 4° C. Anti-EEA1 rabbit monoclonal antibody (Cell signaling Technology, Danvers, Mass.) was incubated (1:200) with the cells overnight at 4° C. The resulting cells were rinsed with PBS three times. After incubation with secondary antibody Alexa Fluor 555 conjugated anti Rabbit IgG (Cell signaling technology, Danvers, Mass.) for 1 hour at 4° C., the corresponding cells were rinsed with PBS three times followed by adding antifade reagent to examine the cells with confocal laser microscopy.
A431 and SK-OV3 cells were seeded onto the coverslips and grown for 16 h at 37° C. FITC-labeled 10 nM or 100 nM of heptameric Z^EGFR and Z^HER2 were incubated for 2 h at 37° C. with A431 and SK-OV3 cells grown on coverslips, respectively. After washing away unbound targeting ligands, the cells were fixed with 2% paraformaldehyde in PBS for 15 min at room temperature. Cells were then washed three times with 1×PBS. […]

[2] = test system: A431 cells (EGFR positive cells); experiment: Cell surface binding of FITC-labeled ligands, confocal microscopy, A431; settings: FITC-labeled ligand, 30 min, room temperature

Substance | fluorescence signal (cell binding) [1] | internalization and co-localization with EEA1 (A431 cells) | fluorescence signal (cell binding) [2]
ZEGFR-Heptamer: Self-assembled heptamer of EGFR-binding Z domain fused through a hinge linker to the AF-Sm1 heptamerization domain, His-tagged | No detectable fluorescence signal | efficiently internalized and mostly co-localized with EEA1 | 
ZEGFR-Monomer: EGFR-binding Z domain with hinge linker and C-terminal His-tag, constructed without the heptamerization domain | No detectable fluorescence signal |  | signal was evident
